This is an account of results in paper PMC10400593, “Molecular insights into Spindlin1-HBx interplay and its impact on HBV transcription from cccDNA minichromosome” (Nature Communications, 2023).

This test addresses human Spindlin1_50–262 (Homo sapiens, UniProt Q9Y657). Description: ITC. Background: In ITC the heat of successive injections is recorded.

Broadly, the stoichiometry N is the number of molecules, sites or subunits per partner or assembly.

As to HBx2-21 L18R peptide, the Ka is 31100 M⁻¹ and the stoichiometry N turned out to be 1.1.
